Results of unrelated studies side by side (data: NIAID ChemDB).

All rows: whole-cell or culture tests; species: Mycobacterium tuberculosis

MIC bound comes from a single tested concentration. Rows are shuffled and stem from different studies. a–b is a range or a potency band. An empty or dashed field is not shown. Percent inhibition refers to the dose given; in toxicity tests it is the harm to the cells. ECn is the concentration giving n% inhibition of infection, replication or growth. A number after MIC or MFC names an inhibition level or a share of isolates.

smiles	read-out	changes	method	cell line	conditions	dose	strain or isolate	result
COc1ccc(NC(=O)NNC(=O)CCCC(=O)NNC(=O)Nc2ccc(OC)cc2)cc1	MIC bound		BACTEC				H37Rv	>12.5 µg/mL
Cc1ccc(C2CC(c3ccccc3)=NN2C(=O)c2ccc(O)cc2)cc1	MIC		MTT				H37Ra	70 µM
O=c1c(C=Cc2nc3ccccc3s2)coc2ccc(Cl)cc12	MIC						H37Rv	250 µM
OCC(S)CS	MIC						H37Rv	50 µg/mL
C[n+]1c(C=Cc2coc3ccccc3c2=O)sc2ccccc21	MIC						H37Rv	250 µM
CCOC(=O)CNC(=O)C(=[N+]=[N-])C(=O)COc1ccc(F)cc1	MIC bound		BACTEC				H37Rv	>12.5 µg/mL
CN[C@@H]1[C@H](O[C@H]2[C@H](O[C@H]3[C@H](O)[C@@H](O)[C@H](N=C(N)N)[C@@H](O)[C@@H]3N=C(N)N)O[C@@H](C)[C@]2(O)C=O)O[C@@H](CO)[C@H](O)[C@H]1O	MIC						WH 51/02	0.625 µg/mL
CN1C(NC(=O)c2ccc(Cl)nc2)=NS(=O)(=O)c2cc(Cl)ccc21	MIC						Clinical isolates drug-resistant	>16 µg/mL
CCN(CC)Cc1cc(Nc2c3ccc([N+](=O)[O-])cc3nc3ccc(OC)cc23)ccc1O	MIC bound		BACTEC				H37Rv	≤12.5 µg/mL
CO[C@H]1/C=C/O[C@@]2(C)Oc3c(C)c(O)c4c(O)c(c5c(c4c3C2=O)NC2(CCN(CC(C)C)CC2)N=5)=NC(=O)/C(C)=C\C=C\[C@H](C)[C@H](O)[C@@H](C)[C@@H](O)[C@@H](C)[C@H](OC(C)=O)[C@@H]1C	MIC						Strain 4 (STR-resistant)	0.006 µg/mL
CCC1CN(c2c(F)cc3c(=O)c(C(=O)O)cn(C4CC4)c3c2OC)CCN1	MIC						Isolate TN5702	0.4 µg/mL
Cc1ccc2occ(C(O)Cc3nc4ccccc4s3)c(=O)c2c1	MIC						H37Rv	60 µM
CC(=O)Oc1c(C)c(O)c(C(C)=O)c2c1C1(C)C(=O)C(C(C)=O)=C(O)C=C1O2	MIC		BACTEC				H37Rv	≥12.5 µg/mL
CC1CCN(c2sc([N+](=O)[O-])cc2[N+](=O)[O-])CC1	MIC		resazurin				H37Rv	6.25 µg/mL
CC(=O)SCC(CSC(C)=O)OS(=O)(=O)c1ccc(C)cc1	MIC						H37Rv	6.25–12.5 µg/mL
NC(=O)c1cnccn1	EC50				7 d		H37Rv	<800 µg/mL
C/C(=C\CO)CCC[C@H](C)CCC[C@H](C)CCCC(C)C	MIC						H37Rv	2 µg/mL
Cc1cc2c(cc1C)[n+](=O)c(C(=O)c1ccccc1)c(C)n2[O-]	inhibition		BACTEC			6.25 µg/mL	H37Rv	68%
CCN1C(NNC(=O)c2ccncc2)=NS(=O)(=O)c2ccccc21	MIC						Clinical isolates drug-sensitive	>16 µg/mL
CO[C@H]1/C=C/O[C@@]2(C)Oc3c(C)c(O)c4c(=O)c(c5oc6cc(N7CCN(CC(C)C)CC7)cc(=O)c6nc5c4c3=C2O)NC(=O)/C(C)=C\C=C\[C@H](C)[C@H](O)[C@@H](C)[C@@H](O)[C@@H](C)[C@H](OC(C)=O)[C@@H]1C	MIC						H37Rv	0.008 µg/mL
CCCCCCC(=O)SCC1CS1	MIC						H37Rv	6.25–12.5 µg/mL
CC1=CC(=O)c2ccccc2C1=O	MIC		broth dilution				H37Ra ATCC 25177	8 µg/mL
CC(C)CCC[C@@H](C)CCC[C@@H](C)CCCC(C)CCO	MIC						H37Rv	2 µg/mL
CCCCCCCC(=O)N1[C@H]2[C@@H]1CN1C3=C(C(=O)C(N)=C(C)C3=O)[C@@H](COC(N)=O)[C@@]21OC	MIC						RMP-R	0.4 µg/mL
CC(=O)c1cc([N+](=O)[O-])c(N2CCC(C)CC2)s1	MIC		resazurin				H37Rv	>100 µg/mL
COc1ccccc1C1CC(c2ccccc2)=NN1C(=O)c1ccc(O)cc1	MIC		MTT				H37Ra	134 µM
C/C(N)=C\C(=O)c1[nH]c(C(=O)O)cc1C1CCN(Cc2ccccc2)C1=O	MIC bound		resazurin				H37Rv	>6.25 µg/mL
CCN1C(NNC(=O)c2cnccn2)=NS(=O)(=O)c2ccccc21	MIC						Clinical isolates drug-resistant	8–16 µg/mL
CCCCCCCNc1cnc(C(=O)NCc2ccccc2)cn1	MIC		resazurin				H37Rv	3.13 µg/mL
CCOC(=O)c1cc(C(=O)c2ccc(Br)cc2)n2c1ccc1c3ncccc3ccc12	EC50		reporter gene / fluorescence				H37Rv	>100 µM
CC1CN([C@H]2C[C@H](O)[C@@H](CO)O2)C(=O)NC1=NC1CCCCCCCCCCC1	inhibition		resazurin			6.25 µg/mL	H37Rv	-13%
CCOC(=O)c1cc(C(=O)c2ccccc2)n2c1ccc1c3ncccc3ccc12	EC90		reporter gene / fluorescence				H37Rv	>200 µM
S=C(Nc1ccccc1)N1N=C(c2ccccc2)CC1c1ccc(Cl)cc1Cl	MIC		MTT				H37Ra	471 µM
COC1=C(C)C(=O)c2cc(=O)n(C)cc2C1=O	MIC						Streptomycin-resistant	1.56 µg/mL
CN1C(NNC(=O)c2cccnc2)=NS(=O)(=O)c2ccc(Cl)cc21	MIC						H37Rv (ATCC 27294)	4 µg/mL
CCCC[C@H]1C(=O)O[C@H](C)[C@H](NC(=O)c2cccc(NC=O)c2O)C(=O)O[C@@H](C)[C@@H]1OC(=O)CC(C)C	inhibition		BACTEC			12.8 µg/mL	H37Rv	3%
CCN1C(NNC(=O)c2cccnc2)=NS(=O)(=O)c2ccccc21	MIC						H37Rv (ATCC 27294)	>16 µg/mL
CC(=O)SCC1(C)CS1	MIC						H37Rv	50 µg/mL
CN1C(NNC(=O)c2ccc(Cl)nc2)=NS(=O)(=O)c2ccccc21	MIC						Clinical isolates drug-resistant	>16 µg/mL
Cc1ccc2c(c1)[n+](=O)c(C(=O)c1ccccc1)c(C)n2[O-]	MIC		BACTEC	VERO			H37Rv	6.25 µg/mL
N#Cc1c(Nc2ccccc2)[n+]([O-])c2ccc(Cl)cc2[n+]1[O-]	EC50						H37Rv	<12.5 µg/mL
CCCCCCc1ccc(NC(=O)c2cc(Cl)ccc2O)cc1	MIC						My 331/88	16 µM
S=C(Nc1ccccc1)N1N=C(c2ccccc2)CC1c1ccccc1Cl	MIC		MTT				H37Ra	511 µg/mL
O=C(NC1=NS(=O)(=O)c2ccccc2N1c1ccccc1)c1ccc(Cl)nc1	MIC						H37Rv (ATCC 27294)	>16 µg/mL
CC(C)=CCC/C(C)=C/CC/C(C)=C/CO	MIC						H37Rv	8 µg/mL
CCC(CO)NCCNC1CCCC1	MIC						H37Rv	150 µM
CCCCCCCc1ccc(NC(=O)c2cc(Br)ccc2O)cc1	MIC						My 331/88	8 µM
CCOCCCNCCNC(CC)CO	MIC						H37Rv	150 µM
O=C1c2ccccc2C(=O)c2sc(Nc3ccc([N+](=O)[O-])cc3)nc21	MIC			VERO			H37Rv	1.6 µg/mL
CC1CC(C)CN(c2ccc([N+](=O)[O-])s2)C1	MIC		resazurin				ss18b	12.5 µg/mL
CCOC(=O)c1cc(C(=O)c2ccc(Cl)cc2)n2c1ccc1c3ncccc3ccc12	MIC		reporter gene / fluorescence				H37Rv	>100 µM
CC(=O)c1c(CBr)n([O-])c2ccccc2[n+]1=O	inhibition		BACTEC			6.25 µg/mL	H37Rv	27%
CCOC(=O)c1cc(C(=O)c2ccc(OC)cc2)n2c1ccc1c3ncccc3ccc12	MIC		reporter gene / fluorescence				H37Rv	>200 µM
O=c1c(C=Cc2sc3ccccc3[n+]2Cc2cccc(F)c2)coc2ccccc12	MIC						H37Rv	>500 µM
N#CC1(C#N)NC(c2cccs2)C(C#N)(C#N)NC1c1cccs1	inhibition		resazurin			6.25 µg/mL	H37Rv	-2%
COc1ccccc1CCNCCN[C@@H]1C[C@@H]2C[C@H]([C@H]1C)C2(C)C	MIC						H37Rv	5 µM
Cc1c(C(=O)c2ccccc2)[n+](=O)c2cc(Cl)c(Cl)cc2n1[O-]	MIC		BACTEC	VERO			H37Rv	6.25 µg/mL
CCOC(=O)C(C)c1nc2cc(F)c(N3CCOCC3)cc2[nH]c1=O	inhibition		resazurin			6.25 µg/mL	H37Rv	44%
CN[C@@H]1[C@H](O[C@H]2[C@H](O[C@H]3[C@H](O)[C@@H](O)[C@H](N=C(N)N)[C@@H](O)[C@@H]3N=C(N)N)O[C@@H](C)[C@]2(O)C=O)O[C@@H](CO)[C@H](O)[C@H]1O	MIC						3694/83 (streptomycin-resistant)	25–50 µg/mL
CC(C)(C)c1ccc(NC(=O)c2ccc(Cl)cc2O)cc1	MIC						My 331/88	16 µM
O=C(NNC1=NS(=O)(=O)c2ccccc2N1c1ccccc1)c1cccnc1	MIC						Clinical isolates drug-sensitive	>16 µg/mL
O=C(CC(=O)N1N=C(c2ccccc2)C(N=Nc2ccc(Cl)cc2)C1=O)Nc1ccccc1Cl	inhibition		BACTEC			12.8 µg/mL	H37Rv	20%
CC1(C)[C@H]2CC[C@@H](CNCCNCC(c3ccccc3)c3ccccc3)[C@@H]1C2	MIC						H37Rv	1 µM
CCCCNc1nc(SC)nc2nc[nH]c12	MIC bound		resazurin				H37Rv	>6.25 µg/mL
CC1CCN(c2ccc([N+](=O)[O-])s2)CC1	MIC		resazurin				ss18b	12.5 µg/mL
COc1ccc(/C=C2\N=C(c3ccccc3)OC2=O)cc1OC	MIC bound		BACTEC				H37Rv	>12.5 µg/mL
Cc1ccc(C(=O)[C@@H]2[C@H]3C(=O)N(c4ccccc4)C(=O)[C@H]3[C@H]3C=Cc4c(ccc5cccnc45)N32)cc1	EC90		reporter gene / fluorescence				H37Rv	>200 µM
CCOC(=O)C1=C(C(=O)c2ccc(OC)cc2)C(c2cccc([N+](=O)[O-])c2)C(C(=O)c2ccc(OC)cc2)=C(C(=O)OCC)N1	MIC bound		BACTEC				H37Rv	>12.5 µg/mL
CC(=O)SCC1CS1	MIC						H37Rv	0.4–0.8 µg/mL
Cc1ccc(C2CC(c3ccccc3)=NN2C(=S)Nc2ccccc2)cc1	MBC		visual reading				H37Ra	34 µM
CC(C)=CCOc1c2ccoc2cc2oc(=O)ccc12.NNC(=O)c1ccncc1	MIC100	Isoniazid-resistant	agar				H37Rv clinical isolate CRY7	25 µg/mL
CC(S)CSCCS	MIC						H37Rv	>100 µg/mL
Cc1cc2c(cc1C)[n+](=O)c(C(=O)CBr)c(CBr)n2[O-]	inhibition		BACTEC			6.25 µg/mL	H37Rv	0%
C/C=C/CSc1cc(NC(=S)c2ccsc2C)ccc1Cl	MIC bound		BACTEC				H37Rv	>6.25 µg/mL
O=C(c1ccc(O)cc1)N1N=C(c2ccccc2)CC1c1ccc(Cl)cc1Cl	MIC		MTT				H37Ra	61 µM
O=C1C=C(Nc2cnccn2)c2ccccc2C1=O	MIC bound		resazurin				H37Rv	<6.25 µg/mL
COC(=O)c1c(C(=O)OC)c2ccc3c4ncccc4ccc3n2c1C(=O)c1ccc(Cl)cc1	EC90		reporter gene / fluorescence				H37Rv	>50 µM
NNC(=O)c1ccncc1	MIC						WC 64/02	0.062 µg/mL
COc1ccc(OCc2c(C(C)=O)[n+](=O)c3ccccc3n2[O-])cc1	EC50		BACTEC	VERO			H37Rv	<6.25 µg/mL
O=[N+]([O-])c1cc2c([N+](=O)[O-])cccc2o1	MIC bound		resazurin				H37Rv	>6.25 µg/mL
CC(=O)c1c(CN2CCN(c3ccc(Cl)cc3)CC2)n([O-])c2cc(C)c(C)cc2[n+]1=O	inhibition		BACTEC			6.25 µg/mL	H37Rv	0%
CCOC(=O)Nc1ccc(C2OCCS2)cc1	inhibition		BACTEC			12.5 µg/mL	H37Rv	83%
CCC(CO)NCCNC(C)CO	MIC						H37Rv	75 µM
CCCCCCCCc1ccc(NC(=O)c2ccc(Cl)cc2O)cc1	MIC						My 331/88	16 µM
CC(C)=CCC/C(C)=C/CNCCNC1C2CC3CC(C2)CC1C3	MIC						H37Rv	0.2 µM
O=C(SCC1CS1)c1ccc(C(=O)SCC2CS2)cc1	MIC						H37Rv	3.125 µg/mL
CC1=CC(=O)C(C(C)C)=CC1=O	MBC		broth dilution				H37Ra ATCC 25177	16 µg/mL

For reference, 6 entries again:

smiles | read-out | changes | method | cell line | conditions | dose | strain or isolate | result
CC(C)(C)c1ccc(NC(=O)c2ccc(Cl)cc2O)cc1 | MIC |  |  |  |  |  | My 331/88 | 16 µM
CC1=CC(=O)c2ccccc2C1=O | MIC |  | broth dilution |  |  |  | H37Ra ATCC 25177 | 8 µg/mL
CN[C@@H]1[C@H](O[C@H]2[C@H](O[C@H]3[C@H](O)[C@@H](O)[C@H](N=C(N)N)[C@@H](O)[C@@H]3N=C(N)N)O[C@@H](C)[C@]2(O)C=O)O[C@@H](CO)[C@H](O)[C@H]1O | MIC |  |  |  |  |  | 3694/83 (streptomycin-resistant) | 25–50 µg/mL
Cc1ccc(C2CC(c3ccccc3)=NN2C(=S)Nc2ccccc2)cc1 | MBC |  | visual reading |  |  |  | H37Ra | 34 µM
CCCCCCCc1ccc(NC(=O)c2cc(Br)ccc2O)cc1 | MIC |  |  |  |  |  | My 331/88 | 8 µM
CCOC(=O)CNC(=O)C(=[N+]=[N-])C(=O)COc1ccc(F)cc1 | MIC bound |  | BACTEC |  |  |  | H37Rv | >12.5 µg/mL